The assay concerns the target HBoV1 NS[…] with Flag and His tags (human bocavirus 1 (HBoV1)). As to the kind of experiment: BLI.

The values below come from publication PMC8865542 (2021).

Broadly, the koff is a measure of how fast the partners let go of each other. Read a high koff as a short-lived complex.

B1: Ku70 with Strep-tag II (natural protein)
chain: MSGWESYYKTEGDEEAEEEQEENLEASGDYKYSGRDSLIFLVDASKAMFESQSEDELTPFDMSIQCIQSVYISKIISSDRDLLAVVFYGTEKDKNSVNFKNIYVLQELDNPGAKRILELDQFKGQQGQKRFQDMMGHGSDYSLSEVLWVCANLFSDVQFKMSHKRIMLFTNEDNPHGNDSAKASRARTKAGDLRDTGIFLDLMHLKKPGGFDISLFYRDIISIAEDEDLRVHFEESSKLEDLLRKVRAKETRKRALSRLKLKLNKDIVISVGIYNLVQKALKPPPIKLYRETNEPVKTKTRTFNTSTGGLLLPSDTKRSQIYGSRQIILEKEETEELKRFDDPGLMLMGFKPLVLLKKHHYLRPSLFVYPEESLVIGSSTLFSALLIKCLEKEVAALCRYTPRRNIPPYFVALVPQEEELDDQKIQVTPPGFQLVFLPFADDKRKMPFTEKIMATPEQVGKMKAIVEKLRFTYRSDSFENPVLQQHFRNLEALALDLMEPEQAVDLTLPKVEAMNKRLGSLVDEFKELVYPPDYNPEGKVTKRKHDNEGSGSKRPKVEYSEEELKTHISKGTLGKFTVPMLKEACRAYGLKSGLKKQELLEALTKHFQD
Molecule B1 registered a koff of 0.000459 s⁻¹.

B2: Ku70 domain A (α/β domain) with Strep-tag II (domain or fragment)
chain: MSGWESYYKTEGDEEAEEEQEENLEASGDYKYSGRDSLIFLVDASKAMFESQSEDELTPFDMSIQCIQSVYISKIISSDRDLLAVVFYGTEKDKNSVNFKNIYVLQELDNPGAKRILELDQFKGQQGQKRFQDMMGHGSDYSLSEVLWVCANLFSDVQFKMSHKRIMLFTNEDNPHGNDSAKASRARTKAGDLRDTGIFLDLMHLKKPGGFDISLFYRDIISIAEDEDLRVHFEESSKLEDLLRKVRAKE
B2 yielded a koff of 0.000548 s⁻¹.
